Experimental data as given in patent US4810630A, “Use of polyoxyethylene ethers to improve the performance of immunoassays employing peroxidase conjugates” (priority 1987, dated 1989).

Columns and labels:
N. gonorrhea [1] = assay: Dipstick enzyme immunoassay (peroxidase conjugate) for N. gonorrhea with detergent: signal and signal to noise ratio; set-up: species or system Neisseria gonorrhea; details: for Sample Absorbance, Positive (Signal): mean of triplicate
N. gonorrhea [2] = assay: Microtiter plate enzyme immunoassay: optimization of coating antibody concentration with detergent in assay buffer; set-up: species or system Neisseria gonorrhea
Description: Samples were treated 1.0N NaOH and neutralized with assay buffer as described in Example 1, above. For this assay, 0.100 mL aliquots of the treated, neutralized sample were transferred to the wells of a 96-well microtiter plate which had been previously incubated with an optimized concentration of anti-N. gonorrhea antibody diluted in phosphate buffered saline for 90-120 minutes, drained, then blocked with a solution containing 1.0% bovine serum albumin and 20% sucrose in phosphate buffered saline for 2 hours and dried in vacuo. The aliquots were permitted to incubate in the microtiter plate wells for 90 minutes at room temperature,then drained and washed with phosphate buffered saline containing 0.05% Tween® 20. Horseradish peroxidase conjugated anti-N. gonorrhea, 100 μL of an optimized concentration, was then added to each well and the plate again incubated for 1 hour at room temperature. The plate was then drained and washed as above. A 100 μL portion of the substrate/chromogen solution described in Example 1, above, was then added to each well and incubated for 10 minutes at room temperature. The absorbance of each well was then determined at 630 nm, and corrected for the absorbance at 490 nm.
Antibody specific for Neisseria gonorrhea was used to coat the wells of microtiter plates at varying concentrations in phosphate buffered saline, as described above. A comparison of the optimal antibody concentration in assays using Tween® 20 or Triton® X-100 was made by testing a single concentration of N. gonorrhea in wells previously coated, blocked, and dried as described above. The optimum concentration of antibody is identified as that which yields the maximum signal in the assay with a minimal background response. Table 4 lists the results of such experiments using Tween® 20 and Triton® X-100 as detergents in the assay buffer.

[3] = 0.200% detergent, N. gon. + 0 μL blood
[4] = 0.200% detergent, N. gon. + 50 μL blood
[5] = 0.20% detergent, with 50 μL blood

polyoxyethylene-sorbitan monolaurate [Tween ® 20]
Sample Absorbance, Positive (Signal) (N. gonorrhea [1]; 0.075% detergent, N. gon. + 0 μL blood): 0.275 | Sample Absorbance, Positive (Signal) (N. gonorrhea [1]; 0.075% detergent, N. gon. + 50 μL blood): 0.473 | Signal/Noise (N. gonorrhea [1]; 0.075% detergent, with 50 μL blood): 0.94 | Signal/Noise (N. gonorrhea [1]; 0.075% detergent, without blood): 9.48 | Sample Absorbance, Positive (Signal) (N. gonorrhea [1]; 0.125% detergent, N. gon. + 0 μL blood): 0.434 | Sample Absorbance, Positive (Signal) (N. gonorrhea [1]; 0.125% detergent, N. gon. + 50 μL blood): 0.520 | Signal/Noise (N. gonorrhea [1]; 0.125% detergent, with 50 μL blood): 1.02 | Signal/Noise (N. gonorrhea [1]; 0.125% detergent, without blood): 21.7 | Sample Absorbance, Positive (Signal) (N. gonorrhea [1]; [3]): 0.794 | Sample Absorbance, Positive (Signal) (N. gonorrhea [1]; [4]): 0.607 | Signal/Noise (N. gonorrhea [1]; [5]): 2.42 | Signal/Noise (N. gonorrhea [1]; 0.20% detergent, without blood): 24.8 | Absorbance Background (N. gonorrhea [2]; coating antibody 0.05 μg/well): 0.001 | Absorbance Background (N. gonorrhea [2]; coating antibody 0.1 μg/well): 0.005 | Absorbance Background (N. gonorrhea [2]; coating antibody 0.5 μg/well): 0.013 | Absorbance Background (N. gonorrhea [2]; coating antibody 0.8 μg/well): 0.018 | Absorbance Background (N. gonorrhea [2]; coating antibody 1.0 μg/well): 0.050 | Absorbance Background (N. gonorrhea [2]; coating antibody 1.5 μg/well): 0.022 | Absorbance Background (N. gonorrhea [2]; coating antibody 2.0 μg/well): 0.034

polyoxyethylene-octylphenoxy [Triton ® X-100]
Signal/Noise (N. gonorrhea [1]; 0.05% detergent, with 50 μL blood): 1.08 | Signal/Noise (N. gonorrhea [1]; 0.05% detergent, without blood): 41.8 | Sample Absorbance, Positive (Signal) (N. gonorrhea [1]; 0.100% detergent, N. gon. + 0 μL blood): 1.550 | Sample Absorbance, Positive (Signal) (N. gonorrhea [1]; 0.100% detergent, N. gon. + 50 μL blood): 0.390 | Signal/Noise (N. gonorrhea [1]; 0.10% detergent, with 50 μL blood): 4.11 | Signal/Noise (N. gonorrhea [1]; 0.10% detergent, without blood): 77.5 | Sample Absorbance, Positive (Signal) (N. gonorrhea [1]; [3]): 1.653 | Sample Absorbance, Positive (Signal) (N. gonorrhea [1]; [4]): 0.498 | Signal/Noise (N. gonorrhea [1]; [5]): 3.51 | Signal/Noise (N. gonorrhea [1]; 0.20% detergent, without blood): 78.7 | Signal/Noise (N. gonorrhea [1]; 0.25% detergent, with 50 μL blood): 18.5 | Signal/Noise (N. gonorrhea [1]; 0.25% detergent, without blood): > 71 | Sample Absorbance, Positive (Signal) (N. gonorrhea [1]; 0.300% detergent, N. gon. + 0 μL blood): > 1.836 | Sample Absorbance, Positive (Signal) (N. gonorrhea [1]; 0.300% detergent, N. gon. + 50 μL blood): 1.083 | Signal/Noise (N. gonorrhea [1]; 0.30% detergent, with 50 μL blood): 24.1 | Signal/Noise (N. gonorrhea [1]; 0.30% detergent, without blood): > 108 | Absorbance Background (N. gonorrhea [2]; coating antibody 0.20 μg/well): 0.016 | Absorbance Background (N. gonorrhea [2]; coating antibody 0.30 μg/well): 0.016 | Absorbance Background (N. gonorrhea [2]; coating antibody 0.35 μg/well): 0.019 | Absorbance Background (N. gonorrhea [2]; coating antibody 0.40 μg/well): 0.022 | Absorbance Background (N. gonorrhea [2]; coating antibody 0.45 μg/well): 0.021 | Absorbance Background (N. gonorrhea [2]; coating antibody 0.5 μg/well): 0.020 | Absorbance Background (N. gonorrhea [2]; coating antibody 0.60 μg/well): 0.019
